Read-outs that look alike come from different tables or passages of the source.
Tested on: Candidatus Liberibacter asiaticus (CLas)
Details: trunk injection, infected Mosambi (Citrus sinensis), 2S albumin 330 ppm, Nano-ZnO 1,000 ppm alone or 330 ppm in combination, Zinc nitrate 165 ppm

## O=[N+]([O-])[O-].O=[N+]([O-])[O-].[Zn+2] [Zinc nitrate]
30 DAT
  fold decrease of CLas titer: 1 fold
60 DAT
  fold decrease of CLas titer: 0 fold
90 DAT
  fold decrease of CLas titer: 0 fold
120 DAT
  fold decrease of CLas titer: 0.5 fold
